Laboratory results published in paper PMC4807363, “Cryo-electron Microscopy Structures of Chimeric Hemagglutinin Displayed on a Universal Influenza Vaccine Candidate” (2016).

Experiments:
[1] = molecular target: H1 hemagglutinin (HA) displayed on pH1N1 virus (influenza A virus, pH1N1 (strain not stated for the imaged virus))
[2] = molecular target: H5 hemagglutinin (HA) displayed on H5N1 virus (influenza A virus, H5N1 (strain not stated for the imaged virus))

| Substance | stoichiometry N [1] | stoichiometry N [2] |
| --- | --- | --- |
| H1 hemagglutinin (HA) displayed on pH1N1 virus | 3 | – |
| H5 hemagglutinin (HA) displayed on H5N1 virus | – | 3 |
